This note sets out measurements from article PMC7026589, “Sensitive CometChip assay for screening potentially carcinogenic DNA adducts by trapping DNA repair intermediates” (Nucleic Acids Research, 2019).

Data set [1] relates to primary mouse hepatocytes.

On to Aflatoxin B1 [AFB1], for which the “SSBs” value is reported as “greatly reduced” in the data set on Xpa−/− mouse hepatocytes and “induces SSBs that are detectable” in data set [1].
